Among the data in patent EP0560274B1 (priority 1992, dated 1993) are step yield values, retold here.

A short description of the series: general procedure: solution-phase peptide synthesis. As to conditions: late stage modification step.

Some peptides are written in HELM: one residue between dots, names in brackets for other building blocks, links after the first $.

On to “PEPTIDE1{[Pr2CHNHCO].[Tbg].[Asp(pyrrolidino)].[Asp(cyPn)].[gMeLeucinol]}$$$$V2.0”, for which the step yield is recorded as 85%.
